Results of unrelated studies side by side (data: NIAID ChemDB).

Shared fields: growth or infection tests; species: HIV-2; cell line: CEM; measure: EC50

Blank or dashed fields: not listed here. ECn is the concentration giving n% inhibition of infection, replication or growth. Neighbouring rows are from separate reports.

SMILES,strain,method,result
Nc1nccc(OC[C@@H]2O[C@H](CO)[C@@H](O)[C@H]2O)n1,ROD,syncytia,>100 µM
Cc1ccc(C)c(C(CO)S(=O)(=O)c2ccccn2)c1,ROD,syncytia,>100 µg/mL
CCC(=O)c1ccc2c(c1)sc(=O)n2CCN1CCOCC1,ROD,syncytia,>40 µg/mL
Cc1cccc(CS(=O)(=O)c2cccc[n+]2[O-])c1,ROD,syncytia,12 µg/mL
Cc1c(N)nc(N)nc1OCCOCP(=O)(O)O,ROD,syncytia,1.9 µM
Cc1ccc(C)c(CS(=O)(=O)c2cccc[n+]2[O-])c1,EHO,syncytia,14 µg/mL
CCCOC12CS(=O)(=O)OC13[C@@H](CN2)O[C@@H](n1cc(C)c(=O)[nH]c1=O)[C@@H]3O,ROD,,>250 µM
Cc1ccccc1C(Sc1cccc[n+]1[O-])C(N)=O,ROD,syncytia,>100 µg/mL
O=C(c1ccc([N+](=O)[O-])cc1)c1ccc2[nH]c(=O)oc2c1,ROD,syncytia,>8 µg/mL
Cc1cn([C@@H]2O[C@@H]3CN[C@@]4(O)CS(=O)(=O)O[C@@]34[C@H]2O[Si](C)(C)C(C)(C)C)c(=O)[nH]c1=O,ROD,,>250 µM
CCCCC(=O)c1ccc2c(c1)sc(=O)n2CCN1CCCCC1,ROD,syncytia,>8 µg/mL
COc1ccc[n+]([O-])c1SCc1cc(C)ccc1C,ROD,syncytia,>20 µg/mL
CCCCC(=O)c1ccc2c(c1)oc(=O)n2CCN1CCOCC1,ROD,syncytia,>8 µg/mL
CO[C@]12CS(=O)(=O)O[C@@]13C(CN2)O[C@@H](n1cc(C)c(=O)[nH]c1=O)[C@@H]3O[Si](C)(C)C(C)(C)C,ROD,,>50 µM
Cc1ccc(C)c(C(C#N)Sc2cccc[n+]2[O-])c1,ROD,syncytia,>4 µg/mL
Cc1ccc(C)c(CS(=O)(=O)c2cccc[n+]2[O-])c1,EHO,syncytia,14 µg/mL
OC[C@@H]1CC[C@H](COc2ncnc3nc[nH]c23)O1,ROD,syncytia,>250 µM
CCOc1cccnc1SCc1ccccc1,ROD,syncytia,43 µg/mL
Cc1cn([C@@H]2O[C@@H]3CN[C@@]4(OCCO)CS(=O)(=O)O[C@@]34[C@H]2O)c(=O)[nH]c1=O,ROD,,>250 µM
Cc1ccc(C)c(C(Cc2ccccc2)S(=O)(=O)c2cccc[n+]2[O-])c1,ROD,syncytia,>4 µg/mL
COc1ccc(C)cc1CS(=O)(=O)c1cccc[n+]1[O-],EHO,syncytia,44 µg/mL
Nc1nc(OC[C@H]2CC[C@@H](CO)O2)c2[nH]cnc2n1,ROD,syncytia,>250 µM
COc1cc(CS(=O)c2cccc[n+]2[O-])cc(OC)c1OC,ROD,syncytia,>20 µg/mL
c1ccc(COC[C@H]2CC[C@@H](COc3cc(OC[C@H]4CC[C@@H](COCc5ccccc5)O4)ncn3)O2)cc1,ROD,syncytia,>10 µM
Cc1cn([C@@H]2O[C@@H]3CN[C@@]4(OCC(C)C)CS(=O)(=O)O[C@@]34[C@H]2O)c(=O)[nH]c1=O,ROD,,>250 µM
Nc1nc(N)nc(OC[C@H]2CC[C@@H](COc3nc(N)nc(N)n3)O2)n1,ROD,syncytia,>50 µM
Cc1ccc(C)c(C(C)(Cl)S(=O)(=O)c2cccc[n+]2[O-])c1,ROD,syncytia,>4 µg/mL
Cc1ccc(C)c(C(C)S(=O)(=O)c2ccc(C)c[n+]2[O-])c1,EHO,syncytia,>100 µg/mL
CN(C)c1ccnc(SCc2ccc(Cl)cc2)c1C#N,ROD,syncytia,>20 µg/mL
O=C(c1ccccc1)c1ccc2c(c1)oc(=O)n2CCN1CCOCC1,ROD,syncytia,>8 µg/mL
Cc1c(Cl)ccc(C(C)S(=O)c2cccc[n+]2[O-])c1Cl,ROD,syncytia,>0.8 µg/mL
Cc1ccc(C)c(CS(=O)c2ccc(Cl)c[n+]2[O-])c1,ROD,syncytia,2 µg/mL
Cc1ccc[n+]([O-])c1S(=O)(=O)C(C)c1ccccc1Cl,ROD,syncytia,>20 µg/mL
O=C(c1cccc(I)c1)c1ccc2[nH]c(=O)sc2c1,ROD,syncytia,>8 µg/mL
CCCCCCCCOc1ccc(/C=C(/C#N)Sc2cccc[n+]2[O-])cc1,ROD,syncytia,>20 µg/mL
O=C(c1cccc(Cl)c1)c1ccc2[nH]c(=O)oc2c1,ROD,syncytia,>8 µg/mL

For reference, 3 entries again:

Cc1ccc(C)c(CS(=O)(=O)c2cccc[n+]2[O-])c1 ; strain: EHO ; method: syncytia ; result: 14 µg/mL
CO[C@]12CS(=O)(=O)O[C@@]13C(CN2)O[C@@H](n1cc(C)c(=O)[nH]c1=O)[C@@H]3O[Si](C)(C)C(C)(C)C ; strain: ROD ; result: >50 µM
Cc1ccc[n+]([O-])c1S(=O)(=O)C(C)c1ccccc1Cl ; strain: ROD ; method: syncytia ; result: >20 µg/mL